Here are results for 3 molecules from publication PMC8951179.

Residue numbers refer to the chain shown, from its start. Numbers in names are those of the source.

This experiment addresses HIV-1 integrase carrying N-terminal His6-tag. Put plainly: GST pull-down, quantified Western blot. To be noted: chain shown with the change, read off a plot. (In general: Immunoblotting shows a protein as a band on a membrane.)
Setting [1] is: HIV-1 integrase 100 nM, parent: est. 0.38.
Where [2] appears, read: HIV-1 integrase 200 nM, parent: est. 1.0.

B1: GST-Ku70_1–250, P12956 I72A (protein)
chain: MSGWESYYKTEGDEEAEEEQEENLEASGDYKYSGRDSLIFLVDASKAMFESQSEDELTPFDMSIQCIQSVYASKIISSDRDLLAVVFYGTEKDKNSVNFKNIYVLQELDNPGAKRILELDQFKGQQGQKRFQDMMGHGSDYSLSEVLWVCANLFSDVQFKMSHKRIMLFTNEDNPHGNDSAKASRARTKAGDLRDTGIFLDLMHLKKPGGFDISLFYRDIISIAEDEDLRVHFEESSKLEDLLRKVRAKE
For B1, the response (relative IN bound to Ku70) under setting [1] was found to be 0.02 and the response (relative IN bound to Ku70) under setting [2] was 0.14.

B2: GST-Ku70_1–250, P12956 I76A (protein)
chain: B1 chain with A72I, I76A
As to B2, the response (relative IN bound to Ku70) reads like this: under setting [1], 0.07; under setting [2], 0.09.

B3: GST-Ku70_1–250, P12956 S73A (protein)
chain: B1 chain with A72I, S73A
With B3, the response (relative IN bound to Ku70) came out at 0.05 under setting [1] and 0.03 under setting [2].
